Data published in article PMC4782136 (Scientific Reports, 2016).

Tested on: influenza A/Puerto Rico/8/34 (H1N1)
Test: microbe, parasite or virus in culture
Settings: H1N1, read-out: IC50 ± SD, H1N1

## CC(=O)N[C@H]1[C@H]([C@H](O)[C@H](O)CO)OC(C(=O)O)=C[C@@H]1N=C(N)N [Zanamivir]
  IC50: 310 nM
